In US9587171B2, “Ammonium salts of chelating agents and their use in oil and gas field applications” (AKZO NOBEL CHEMICALS INTERNATIONAL B.V., priority 2010, dated 2017):

Test system: populations of bacteria which occur naturally in seawater
Assay: Seawater biodegradation, closed bottle test OECD 306 (1992)

## N.N.N.O=C(O)CC[C@@H](C(=O)O)N(CC(=O)O)CC(=O)O [triammonium GLDA, triammonium salt of GLDA]
OECD 306 protocol (1992), FIG. 1
  start of biodegradation in seawater: 14 days
Closed bottle test OECD 306 (1992) modified to permit prolonged measurement, day 28
  biodegraded in seawater at day 28: 29%
